Measured values from several laboratories, pooled; numbers as filed in NIAID ChemDB.

All rows: growth or infection tests; species: HIV-1; measure: EC50

a–b is a range or a potency band.

SMILES | strain or isolate | read by | cells | mutations | value
O=C(c1cc2c([nH]c3ccccc32)c(-c2cccs2)n1)N1CCN(c2ccccc2)CC1 | IIIB | syncytia | C8166 |  | 102.1 µM
CC(C)C1=C2[C@H]3CC[C@@H]4[C@@]5(C)CC[C@H](OC(=O)[C@H]6C[C@@H](C(=O)O)C6(C)C)C(C)(C)[C@@H]5CC[C@@]4(C)[C@]3(C)CC[C@@]2([C@@H](O)CNC(=O)CN2CCCCC2)CC1=O | 92HT599 | p24 / ELISA | MT-2 |  | <1 µM
Cc1cc(C)cc(Sc2c(C(C)C)c(=O)[nH]c(=S)n2COCCO)c1 | IIIB TIBO R82913-resistant (RT K103N) | syncytia | CEM | RT-K103N | 0.6 µM
CC(C)C1=C2[C@H]3CC[C@@H]4[C@@]5(C)CC[C@H](OC(=O)[C@H]6C[C@@H](C(=O)O)C6(C)C)C(C)(C)[C@@H]5CC[C@@]4(C)[C@]3(C)CC[C@@]2([C@@H](O)CNC(=O)c2ncccn2)CC1=O | 92HT599 | p24 / ELISA | MT-2 |  | <1 µM
O=c1c(CCc2ccc(F)cc2)c(C2CCC2)[nH]n1-c1nc2ccccc2[nH]1 | NL4-3 | p24 / ELISA | PBMC |  | <0.01 µM
[2H]C(CCCCN)(CNCC[C@@]12CC[C@]3(C)[C@H](CC[C@@H]4[C@@]5(C)CC[C@H](OC(=O)[C@H]6C[C@@H](C(=O)O)C6(C)C)C(C)(C)[C@@H]5CC[C@]43C)C1=C(C(C)C)C(=O)C2)NC(=O)c1ccc(Cl)cc1 | 92HT599 | p24 / ELISA | MT-2 |  | <1 µM
COc1cccc(C2CCN(C(=O)c3cc4c([nH]c5ccccc54)c(-c4cccs4)n3)CC2)c1 | IIIB | p24 / antigen | C8166 |  | 1.1 µM
CCc1c(Sc2cc(C)cc(C)c2)n(COCc2ccccc2)c(=S)[nH]c1=O | IIIB | syncytia | CEM | Nevirapine resistant (RT Y181C) | 0.04 µM
CC(C)C1=C2[C@H]3CC[C@@H]4[C@@]5(C)CC[C@H](OC(=O)[C@H]6C[C@@H](C(=O)O)C6(C)C)C(C)(C)[C@@H]5CC[C@@]4(C)[C@]3(C)CC[C@@]2([C@@H](O)CNC(=O)[C@@H](C)NC(=O)c2ccc(Cl)cc2)CC1=O | 92HT599 | p24 / ELISA | MT-2 |  | <1 µM
C[C@@H]1CCO[C@H]2Cn3cc(C(=O)NCc4ccc(F)cc4F)c(=O)c(O)c3C(=O)N12 |  | luciferase / luminescence | TZM-bl | I60M/V72I/L74F/V75I | 0.0007 µM
CCOCn1c(Cc2ccccc2)c(C(C)C)c(=O)[nH]c1=O | IIIB TIBO R82913-resistant (RT K103N) | syncytia | CEM | RT-K103N | 1.3 µM
Cc1ccccc1C1CCN(C(=O)c2cc3c([nH]c4ccccc43)c(-c3cccs3)n2)CC1 | IIIB | syncytia | C8166 |  | 38.7 µM
N#CC1C=Cc2ccccc2N1C(=O)c1ccc(Cl)cc1 | IIIB | syncytia | MT-2 |  | <3 µM
Cc1cc(C)cc(Cc2c(C(C)C)c(=O)[nH]c(=O)n2COCCO)c1 | IIIB TIBO R82913-resistant (RT K103N) | syncytia | CEM | RT-K103N | ≥10 µM
CCN1CCN(CCNC(=O)C[C@@]23CC[C@]4(C)[C@H](CC[C@@H]5[C@@]6(C)CC[C@H](OC(=O)[C@H]7C[C@@H](C(=O)O)C7(C)C)C(C)(C)[C@@H]6CC[C@]54C)C2=C(C(C)C)C(=O)C3)CC1 | 92HT599 | p24 / ELISA | MT-2 |  | <1 µM
CC(C)c1c(Sc2ccccc2)n(COCc2ccccc2)c(=S)[nH]c1=O | IIIB | syncytia | CEM | RT-Y181I | 5 µM
O=C(c1cc2c([nH]c3ccccc32)c(-c2cccs2)n1)N1CCC(c2ccccc2F)CC1 | IIIB | syncytia | C8166 |  | 18.8 µM
CCCCCCCCCCCCCCCC(=O)OCC(COP(=O)(O)OCCNC(=O)CCC(=O)N[C@H](Cc1ccccc1)C(=O)N[C@H](Cc1cccc2ccccc12)C(=O)N1CCC(C(=O)O[C@@H](CC(C)C)C(=O)N[C@H](C(N)=O)C(C)C)CC1)OC(=O)CCCCCCCCCCCCCCC | BRU | plaque count | HT4 + HT4-6C |  | 15.3 µM
O=C(c1cc2c([nH]c3ccccc32)c(-c2cccs2)n1)N1CCC(c2ccc([N+](=O)[O-])cc2)CC1 | IIIB | p24 / antigen | C8166 |  | 7.6 µM
CCOCn1c(Cc2ccccc2)c(CC)c(=O)[nH]c1=O | IIIB | syncytia | CEM | RT-Y181C | 1.2 µM
CC(C)C1=C2[C@H]3CC[C@@H]4[C@@]5(C)CC[C@H](OC(=O)[C@H]6C[C@@H](C(=O)O)C6(C)C)C(C)(C)[C@@H]5CC[C@@]4(C)[C@]3(C)CC[C@@]2(CC(=O)NCc2ccc(N3CCCCC3)cc2)CC1=O | 92HT599 | p24 / ELISA | MT-2 |  | <1 µM
O=C(c1cc2c([nH]c3ccccc32)c(-c2cccs2)n1)N1CCC(c2cccc(Cl)c2)CC1 | IIIB | syncytia | C8166 |  | 17.8 µM
CCCCCCCCCCCCCCCC(=O)OCC(COP(=O)(O)OCCNC(=O)[C@@H](NC(=O)[C@H](CC(C)C)OC(=O)C1CCN(C(=O)[C@@H](Cc2ccc3ccccc3c2)NC(=O)[C@H](Cc2ccccc2)NC(=O)OCC(C)C)CC1)C(C)C)OC(=O)CCCCCCCCCCCCCCC | BRU | plaque count | HT4 + HT4-6C |  | 9.6 µM
CCOCn1c(Sc2cc(C)cc(C)c2)c(CC)c(=O)[nH]c1=O | IIIB (TIBO 82150) (RT-L100I) | syncytia | CEM | RT-L100I | 0.006 µM
O=C(c1cc2c([nH]c3ccccc32)c(-c2cccs2)n1)N1CCC(c2ccccc2Cl)CC1 | IIIB | syncytia | C8166 |  | >200 µM
CCc1c(Sc2ccccc2)n(COCc2ccccc2)c(=O)[nH]c1=O | IIIB | syncytia | CEM | RT-Y188H | 13 µM
CC(=O)N[C@H]1[C@@H](OP(=O)(O)OP(=O)(O)OC[C@H]2O[C@@H](n3ccc(=O)[nH]c3=O)C[C@@H]2N=[N+]=[N-])O[C@H](CO)[C@@H](O)[C@@H]1O | LAV | RT activity | PBMC |  | 0.57–2.09 µM
CC(C)(C)OC(=O)N1CCCCC1Cc1[nH]n(-c2nc3ccccc3[nH]2)c(=O)c1CCc1ccc(F)cc1 | NL4-3 | p24 / ELISA | PBMC |  | ≥1 µM
COc1cc(N=Nc2cc(S(=O)(=O)O)cc3cc(S(=O)(=O)O)cc(O)c23)c(C)cc1NC(=O)Nc1cc(C)c(N=Nc2cc(S(=O)(=O)O)cc3cc(S(=O)(=O)O)cc(O)c23)cc1OC | LAV-BR | p24 / ELISA | PBL |  | <50 µM
C[C@H]1CO[C@@H]2Cn3cc(C(=O)NCc4ccc(F)cc4F)c(=O)c(O)c3C(=O)N12 | NL4-3 | RT activity | CBMC | M50I | 0.00053 µM
COc1ccc(N2CCN(C(=O)c3cc4c([nH]c5ccccc54)c(-c4cccs4)n3)CC2)cc1 | IIIB | syncytia | C8166 |  | >200 µM

A second listing of 2 rows from above:

SMILES	strain or isolate	read by	cells	mutations	value
O=C(c1cc2c([nH]c3ccccc32)c(-c2cccs2)n1)N1CCC(c2cccc(Cl)c2)CC1	IIIB	syncytia	C8166		17.8 µM
CC(C)C1=C2[C@H]3CC[C@@H]4[C@@]5(C)CC[C@H](OC(=O)[C@H]6C[C@@H](C(=O)O)C6(C)C)C(C)(C)[C@@H]5CC[C@@]4(C)[C@]3(C)CC[C@@]2([C@@H](O)CNC(=O)c2ncccn2)CC1=O	92HT599	p24 / ELISA	MT-2		<1 µM

ECn is the concentration giving n% inhibition of infection, replication or growth. Conditions beyond the fields shown may differ between rows. An empty or dashed field is not shown.